Pooled drug test results. Numbers come from NIAID ChemDB, via PubChem.

Shared fields: whole-cell or culture tests; agent: Mycobacterium tuberculosis

Conditions beyond the fields shown may differ between rows.

compound,dose,measure,strain or isolate,method,changes,value
CCOc1ccc(NC(=O)c2c(Nc3ccccc3)[nH]n3c(=O)cc(C)nc23)cc1,,MIC,H37Rv,resazurin,,50 µg/mL
COc1cc(-c2ccccc2)cc(OC)c1O,,MIC,90-221387,,,52.3 µg/mL
CCN(CC)CC1CCCCN1CC(=O)N1c2cc(Cl)ccc2NC(=O)CC1C,,MIC bound,H37Rv,BACTEC,,>12.5 µg/mL
Cc1cccc(C)c1N=Nc1c(O)c2cccc([N+](=O)[O-])c2[nH]c1=O,,MIC,H37Rv,resazurin,,>6.25 µg/mL
Cc1cc(O)c(-c2ccc([N+](=O)[O-])cc2)c(=O)[nH]1,,MIC,H37Ra,,,>256 µg/mL
CCOC(=O)c1ccc(NC(=O)C(CC(=O)Nc2ccc(C)cc2)C(C)=O)cc1,30 µg/mL,inhibition,H37Rv,,,0%
NC(=O)C(=CNC(=S)Nc1cccc(C(F)(F)F)c1)C(N)=O,,MIC bound,H37Rv,resazurin,,>6.25 µg/mL
O=C(O)c1ccc(NCn2nc(-c3cnccn3)oc2=S)cc1,,MIC,H37Rv,,,0.1 µg/mL
COC(=O)C1=C(C(=O)OC)P2(c3ccccc3)(c3ccccc3)N(C)C(=S)N2C1(c1ccccc1)c1ccccc1,12.5 µg/mL,inhibition,H37Rv,BACTEC,,5%
O=c1[nH]c2cc([N+](=O)[O-])ccc2c(O)c1N=Nc1ccccc1-c1ccccc1,6.25 µg/mL,inhibition,H37Rv,resazurin,,100%
Cc1c2ccncc2c(C)c2c1sc1ccccc12,6.25 µg/mL,inhibition,H37Rv,resazurin,,101%
C=C[C@]1(C)C[C@@H](OC(=O)CSC(C)(C)CNC[C@H](N)C(C)C)[C@]2(C)[C@H](C)CC[C@]3(CCC(O)[C@H]32)[C@@H](C)[C@@H]1O,,MIC100,H37Rv,broth dilution,,6.25 µg/mL
COc1ncc(F)c2nc(S(=O)(=O)Nc3ncccc3C(C)=O)nn12,,MIC50,X59,visual reading,INH RIF resistant,0.5 µM
COC(=O)C1C2CC3c4[nH]c5cc(OC)ccc5c4CCN3CC2CC(OC(=O)CCc2cc(OC)c(OC)c(OC)c2)C1OC,,MIC,H37Rv,BACTEC,,≥128 µg/mL
Cc1ccn2nc(S(=O)(=O)Nc3c(Br)ccc4cccnc34)nc2n1,,MIC50,M22,visual reading,INH RIF resistant,0.5 µM
CC1(C)CCC(NC(=O)c2cc3c(C#N)ccnc3[nH]2)CC1,,MIC90,H37Rv,resazurin,,0.051 µg/mL
Cc1c(CN2CCN(C)CC2)cc(-c2ccc(Cl)cc2)n1Cc1ccccc1,,MIC,103471,,,4 µg/mL
CC(C)c1c(O)ccc2c1CCC1C(C)(C)CCC[C@]21C,,MIC,H37Rv,,,16 µg/mL
CCCCCn1c(C)cc(O)c(-c2ccccc2)c1=O,,MIC,H37Ra,,,16 µg/mL
Cc1cc(=O)n2[nH]c(Nc3ccc(F)cc3)c(C(=O)Nc3cccc(Cl)c3)c2n1,,MIC,H37Rv,resazurin,,12.5 µg/mL
Cn1c2c(c3ccccc31)CCN(CCCCN1CCN(c3ccccc3)CC1)C2=O,,MIC bound,H37Rv,resazurin,,>6.25 µg/mL
O=c1[nH]c2c(Cl)c(Cl)ccc2c(O)c1N=Nc1cccc(F)c1,6.25 µg/mL,inhibition,H37Rv,resazurin,,80%
CCOC(=O)c1ccc(NC(=O)C(CC(=O)Nc2cccc(Cl)c2)C(C)=O)cc1,5 µg/mL,inhibition,H37Rv,,,0%
FC(F)(F)c1cc(C(OB(c2ccccc2)c2ccccc2)C2CCCCN2)c2cccc(C(F)(F)F)c2n1,,MIC,H37Ra,resazurin,,50 µg/mL
Cc1cc(O)c(-c2ccccc2)c(=O)n1Cc1ccccc1,,MIC,H37Ra,,,8 µg/mL
Brc1cncnc1-c1ccco1,,MIC,MDR,broth dilution,Rifampicin- and isoniazid-resistant,1.5 µg/mL
CCOC(=O)c1cc2ccccc2[nH]1,,MIC bound,H37Rv,BACTEC,,>6.25 µg/mL
CCCCS(=O)(=O)Nc1ccc2[nH]c(C(=O)NCc3ccccc3F)c(C)c2c1,,MIC90,H37Rv,resazurin,,0.78 µM
Cc1cc(CN2CCOCC2)c(C)n1C1CCCCC1,,MIC,103471,,,>64 µg/mL
COc1ccc2c(=O)c3c(O)cccc3oc2c1O,,MIC,90-221387,,,24.8 µg/mL
COc1ccc(NC(=O)c2c(Nc3ccc(Cl)cc3)[nH]n3c(=O)cc(C)nc23)cc1,,MIC,H37Rv,resazurin,,12.5 µg/mL
NNC(=O)c1cc(NN)ccn1,6.25 µg/mL,inhibition,H37Rv,BACTEC,,0%
O=c1[nH]c2cc(Cl)ccc2c(O)c1N=Nc1cccc(Cl)c1,,MIC,H37Rv,resazurin,,>6.25 µg/mL
c1ccc(Nc2nnc(-c3cnccn3)s2)cc1,,MIC,H37Rv,,,0.1 µg/mL
CCOC(=O)c1ccc(NC(=O)C(CC(=O)Nc2ccc(OCC)cc2)C(C)=O)cc1,5 µg/mL,inhibition,H37Rv,,,0%
CCCCS(=O)(=O)Nc1ccc2[nH]c(C(=O)NC3CC3)c(C)c2c1,,MIC90,H37Rv,resazurin,,3.13 µM
CC1(C)Oc2ccc(/C=C/C=O)cc2C[C@H]1O,,MIC,H37Rv,,,52.4 µg/mL
Cc1cc(NC(=O)CCc2ccc(N3C(N)=NC(N)=NC3(C)C)cc2Cl)ccc1S(=O)(=O)F,,MIC bound,H37Rv,BACTEC,,>12.5 µg/mL
C[C@H](NCn1nc(-c2cnccn2)oc1=S)C(=O)O,,MIC,H37Rv,,,0.1 µg/mL
CCc1nc(N)nc(N)c1-c1ccc(Cl)cc1,,MIC,H37Rv,,,129 µM
CO[C@H]1/C=C/O[C@@]2(C)Oc3c(C)c(O)c4c(O)c(c5c(c4c3C2=O)NC2(CCN(CC(C)C)CC2)N=5)=NC(=O)/C(C)=C\C=C\[C@H](C)[C@H](O)[C@@H](C)[C@@H](O)[C@@H](C)[C@H](OC(C)=O)[C@@H]1C,,MIC,1 isolates (rpoB Ser531Tyr),,,>8 µg/mL
COC(=O)c1nc(C(=O)OC)c(C(=O)OC)nc1C(=O)OC,12.5 µg/mL,inhibition,H37Rv,BACTEC,,9%
Cc1c(CN2CCN(C)CC2)c(CN2CCN(C)CC2)c(-c2ccc(Cl)cc2)n1Cc1ccccc1,,MIC,103471,,,>64 µg/mL
C=C[C@]1(C)C[C@@H](OC(=O)CSC(C)(C)CNC(=O)[C@H](N)CC(C)C)[C@]2(C)[C@H](C)CC[C@]3(CC/C(=N\OC)[C@H]32)[C@@H](C)[C@@H]1O,,MIC100,H37Rv,resazurin,,8.18 µg/mL
Nc1ncc(Cl)c2c1ncn2[C@@H]1O[C@H](CO)[C@@H](O)[C@H]1O,,MIC,SRICK1,,,>100 µg/mL
Cc1cc(CN2CCN(C)CC2)c(C)n1C1CCCCC1,,MIC,103471,,,8 µg/mL
CC(=O)C(NC(=O)C(C)C(O)C(C)NC(=O)C(NC(=O)c1nc(C(CC(N)=O)NCC(N)C(N)=O)nc(N)c1C)C(OC1OC(CO)C(O)C(O)C1(C)OC1OC(CO)C(O)C(O)(C(N)=O)C1O)c1cnc[nH]1)C(=O)NCCC1=NC(c2nc(C(N)=O)cs2)CS1,,MIC,PZA-R,,,<0.002 µg/mL
Cc1c(CN2CCOCC2)c(CN2CCOCC2)c(-c2ccc(Cl)cc2)n1C1CCCCC1,,MIC,103471,,,4 µg/mL
CCCCCCCCCC(=O)N[C@H]1[C@H](Oc2c3cc4cc2Oc2ccc(cc2Cl)[C@@H](O[C@@H]2O[C@H](CO)[C@@H](O)[C@H](O)[C@H]2NC(C)=O)[C@@H]2NC(=O)[C@H](NC(=O)[C@@H]4NC(=O)[C@H]4NC(=O)[C@@H](Cc5ccc(c(Cl)c5)O3)NC(=O)[C@H](N)c3ccc(O)c(c3)Oc3cc(O)cc4c3)c3ccc(O)c(c3)-c3c(O[C@H]4O[C@H](CO)[C@@H](O)[C@H](O)[C@@H]4O)cc(O)cc3[C@H](C(=O)O)NC2=O)O[C@H](CO)[C@@H](O)[C@@H]1O,,MIC,L1905,,,>64 µg/mL
C[n+]1cccc(C(=O)NN)c1.Cc1ccc(S(=O)(=O)[O-])cc1,,MIC bound,H37Rv,BACTEC,,>12.5 µg/mL
COc1nc2ccc(Br)cc2cc1[C@@H](c1ccccc1)[C@@](O)(CCN(C)C)c1cccc2ccccc12,,MIC90,clinical isolate MAL010075,resazurin,,0.03125 µg/mL
CC(=O)O[C@@H]1[C@H]2CC[C@H]3[C@@](C)(O)[C@@H]4C[C@H](O)C(C)(C)[C@@]4(O)[C@H](O)C[C@@]13C[C@@]2(C)O,,MIC,H37Rv,BACTEC,,≥128 µg/mL
CCCCS(=O)(=O)Nc1ccc2[nH]c(C(=O)N[C@H](C)c3ccccc3)c(C)c2c1,,MIC90,H37Rv,resazurin,,3.1 µM
COc1ccc2c(c1)[n+]([O-])c(-c1ccccc1)c(N)[n+]2[O-],,MIC,EMB-R,,,3.1 µg/mL
CC[C@]1(C)C[C@@H](OC(=O)CSC(C)(C)CNC(=O)[C@H](N)CC(C)C)[C@]2(C)[C@H](C)CC[C@]3(CC/C(=N\OC)[C@H]32)[C@@H](C)[C@@H]1O,,MIC100,H37Rv,low oxygen,,2.76 µg/mL
CCCCCCn1c(C)c(CN2CCOCC2)c(CN2CCOCC2)c1-c1ccc(Cl)cc1,,MIC,103471,,,8 µg/mL
CCCCS(=O)(=O)Nc1ccc2[nH]c(C(=O)N3CCC3)c(C)c2c1,,MIC90,H37Rv,resazurin,,0.78 µM
N=C1C=C(N)C(=O)c2ccccc21,12.5 µg/mL,inhibition,H37Rv,BACTEC,,96%
Nc1nccc2c1ncn2[C@@H]1O[C@H](CO)[C@@H](O)[C@H]1O,,MIC,SRICK1,,,>100 µg/mL
COc1ccc(CSC(=S)Nc2ccc(SC)c(Cl)c2)cc1,,MIC bound,H37Rv,BACTEC,,≤128 µg/mL
COc1ccc(NC(=O)c2c(Nc3ccccc3)[nH]n3c(=O)cc(C)nc23)cc1,,MIC,H37Rv,resazurin,,50 µg/mL
COc1ccc2c(c1)[n+](=O)c(C(=O)C/C(=N\NC(=O)C[N+](C)(C)C)C(=O)Nc1cc(Cl)ccc1Cl)c(C)n2[O-].[Cl-],,MIC,H37Rv,BACTEC,,≥12.5 µg/mL
C=C(C)[C@@H](O)Cc1c(O)cc(-c2ccc(O)cc2)cc1OC,,MIC,90-221387,,,50.3 µg/mL
Cn1c(=O)c(N=Nc2ccc(Cl)cc2)c(O)c2ccccc21,6.25 µg/mL,inhibition,H37Rv,resazurin,,38%
COc1cc(-c2ccc(O)cc2)cc(O)c1C/C=C(\C)CO,,MIC,90-221387,,,25.4 µg/mL
CCCCn1c(C)cc(O)c(-c2ccccc2)c1=O,,MIC,H37Ra,,,32 µg/mL
Cc1[nH]c(C)c(CN2CCN(C)CC2)c1CN1CCN(C)CC1,,MIC,103471,,,>64 µg/mL
CCOC(=O)c1ccc(NC(=O)CC(C(C)=O)C(=O)Nc2cccc3ccccc23)cc1,30 µg/mL,inhibition,H37Rv,,,0%
CC1COc2c(N3CCN(C)CC3)c(F)cc3c(=O)c(C(=O)O)cn1c23,,MIC,H37Rv,,,0.5–1 µg/mL
CCCCC(=O)N/N=C/c1ccc(O)cc1O,12.5 µg/mL,inhibition,H37Rv,BACTEC,,5%
Brc1cncnc1-c1cccs1,,MIC,H37Rv,broth dilution,,0.7 µg/mL
COc1ccn(C2OC(COC(C)=O)C(OC(C)=O)C(OC(C)=O)C2NC(=O)OCc2ccccc2)c(=O)n1,12.5 µg/mL,inhibition,H37Rv,BACTEC,,-46%
CN1CCN(c2ccccc2NCc2cccc3ccccc23)CC1,,MIC,103471,,,4 µg/mL
CCCCS(=O)(=O)Nc1ccc2[nH]c(C(=O)N[C@@H](C)c3ccccc3)c(C)c2c1,,MIC90,H37Rv,resazurin,,6.2 µM
Nc1nc(F)c(F)c2c1ncn2[C@@H]1O[C@H](CO)[C@@H](O)[C@H]1O,,MIC,SRICK1,,,>100 µg/mL
COc1ccc(N=Nc2c(O)c3c(Cl)ccc(Cl)c3[nH]c2=O)cc1,6.25 µg/mL,inhibition,H37Rv,resazurin,,36%
N#Cc1c(N2CCN(c3ccc([N+](=O)[O-])cc3)CC2)[n+](=O)c2ccc(Cl)cc2n1[O-],,MIC,H37Rv,resazurin,,0.2 µg/mL
COc1cc(/C=C/C=O)cc2c1OC(C)(C)[C@H](O)C2,,MIC,H37Rv,,,55.6 µg/mL

The last 11 rows once more:

compound	dose	measure	strain or isolate	method	changes	value
CCOC(=O)c1ccc(NC(=O)CC(C(C)=O)C(=O)Nc2cccc3ccccc23)cc1	30 µg/mL	inhibition	H37Rv			0%
CC1COc2c(N3CCN(C)CC3)c(F)cc3c(=O)c(C(=O)O)cn1c23		MIC	H37Rv			0.5–1 µg/mL
CCCCC(=O)N/N=C/c1ccc(O)cc1O	12.5 µg/mL	inhibition	H37Rv	BACTEC		5%
Brc1cncnc1-c1cccs1		MIC	H37Rv	broth dilution		0.7 µg/mL
COc1ccn(C2OC(COC(C)=O)C(OC(C)=O)C(OC(C)=O)C2NC(=O)OCc2ccccc2)c(=O)n1	12.5 µg/mL	inhibition	H37Rv	BACTEC		-46%
CN1CCN(c2ccccc2NCc2cccc3ccccc23)CC1		MIC	103471			4 µg/mL
CCCCS(=O)(=O)Nc1ccc2[nH]c(C(=O)N[C@@H](C)c3ccccc3)c(C)c2c1		MIC90	H37Rv	resazurin		6.2 µM
Nc1nc(F)c(F)c2c1ncn2[C@@H]1O[C@H](CO)[C@@H](O)[C@H]1O		MIC	SRICK1			>100 µg/mL
COc1ccc(N=Nc2c(O)c3c(Cl)ccc(Cl)c3[nH]c2=O)cc1	6.25 µg/mL	inhibition	H37Rv	resazurin		36%
N#Cc1c(N2CCN(c3ccc([N+](=O)[O-])cc3)CC2)[n+](=O)c2ccc(Cl)cc2n1[O-]		MIC	H37Rv	resazurin		0.2 µg/mL
COc1cc(/C=C/C=O)cc2c1OC(C)(C)[C@H](O)C2		MIC	H37Rv			55.6 µg/mL

a–b is a range or a potency band. MIC bound: limit read from a one-dose screen. Inhibition is in % at the dose shown (toxicity tests: loss of growth or viability). A number after MIC or MFC names an inhibition level or a share of isolates. An empty or dashed field is not shown.